Results of unrelated studies side by side (data: NIAID ChemDB).

Shared fields: tests in culture; species: Human cytomegalovirus

An empty or dashed field is not shown. Lines come from different laboratories, so protocols vary. ECn: concentration that inhibits the pathogen or its effect by n%.

smiles,measure,cells,method,strain,value
O=C(NCc1ccc(Cl)cc1)c1c[nH]c2ccc(C#CCO)cc2c1=O,EC90,-,virus yield,DAVIS,4.7 µM
[N-]=[N+]=N[C@H]1C[C@@H](CO)S[C@@H]1n1ccc(N)nc1=O,EC50,-,-,-,<100 µg/mL
Cc1c(Br)cc(Br)c2ncc(CSCc3ccc(Cl)cc3)n12,EC50,HEL,plaque count,DAVIS,>20 µg/mL
O=C(NCc1ccc(Cl)cc1)c1cn2c3c(cc(CN4CCOCC4)cc3c1=O)OC(c1cccnc1)C2,EC50,HFF,plaque count,EC,5.8 µM
Cc1ccn2c(C3OCCO3)cnc2c1,EC50,HEL,-,DAVIS,>116 µM
CNc1cccc2c(S(=O)(=O)Nc3ccc(NC(=O)C(C)(C)CO)cc3)cccc12,EC50,-,plaque count,WILD TYPE,0.5 µM
Cn1cc(C(=O)NCc2ccc(Cl)cc2)c(=O)c2cc(CN3CCOCC3)ccc21,EC50,HFF,plaque count,759/R D100 (GCV-resistant),4.2 µM
Cc1ccn2c(C3SCCS3)cnc2c1,EC50,HEL,-,AD169,73 µM
OC[C@H]1O[C@@H](n2c(Cl)nc3cc(Cl)c(Cl)cc32)[C@H](O)[C@@H]1O,EC50,MRC-5,plaque count,1038RB 8-3-3 (plaque-purified 1038RB strain),>50 µM
C=Cc1cn([C@@H]2O[C@H](CO)[C@@H](O)[C@@H]2O)c(=S)nc1N,EC50,MRC-5,plaque count,93-1R,52 µM
OC[C@H]1O[C@@H](n2c(Br)nc3cc(Cl)c(Cl)cc32)[C@H](O)[C@@H]1O,EC50,HFF,plaque count,TOWNE,1.2 µM
CNc1c(C=O)c2cc(Cl)c(Cl)cc2n1[C@@H]1O[C@H](CO)[C@@H](O)[C@H]1O,EC50,HFF,plaque count,-,1.5 µM
CC(C)(CF)C(=O)Nc1ccc(NS(=O)(=O)c2cccc3ccccc23)cc1,EC50,Human embryonic lung fibroblasts,cytopathic effect,DAVIS,0.098 µM
Cc1cn([C@@H]2S[C@H](CO)C[C@H]2N=[N+]=[N-])c(=O)[nH]c1=O,EC50,-,-,-,<100 µg/mL
Nc1nc2c(ncn2[C@@H]2C[C@H](CO)[C@H]2CO)c(=O)[nH]1.O=C(O)P(=O)(O)O,EC75,MRC-5,plaque count,AD169 (ganciclovir foscarnet-susceptible),0.99 µM
OC[C@H]1O[C@@H](n2c(Cl)nc3cc(Cl)c(Cl)cc32)[C@H](O)[C@@H]1O,EC50,HFF,plaque count,Isolate C4 mutations D344E + Q204R,56 µM
CN(C)c1cccc2c(S(=O)(=O)Nc3ccc(NC(=O)C(C)(C)CO)cc3)cccc12,EC50,-,plaque count,TOWNE,1.03 µM
COc1ccccc1CNC(=O)C1=Cc2ccncc2CC1,EC50,MRC-5,plaque count,P8,11.8 µM
COc1c(C#N)c2cc(Cl)c(Cl)cc2n1[C@@H]1O[C@H](CO)[C@@H](O)[C@H]1O,EC50,HFF,plaque count,-,7 µM
CC1(C)OCC2(CC(CO)OC2=O)O1,EC50,HFF,-,AD169,>100 µM
Cc1ccn2c(C(SCCc3ccccc3)SCCc3ccccc3)cnc2c1,EC50,HEL,-,DAVIS,3.1 µM
C[C@H]1O[C@@H](n2c(Br)nc3cc(Cl)c(Cl)cc32)[C@H](O)[C@@H]1O,EC50,HFF,plaque count,TOWNE,0.06 µM
Nc1nc2c(ncn2COC(CO)CO)c(=O)[nH]1,EC50,-,plaque count,AD169,3.8 µM
O=C(O)P(=O)(O)O,EC50,MRC-5,plaque count,AD169 (ganciclovir foscarnet-susceptible),65.66 µM
O=c1ccn([C@@H]2O[C@H](/C=C/C=C(Br)Br)[C@@H](O)[C@H]2O)c(=O)[nH]1,EC50,HEL,-,DAVIS,>120 µM
Cc1cn([C@H]2C[C@H](O)[C@@H](CO)O2)c(=S)[nH]c1=O,EC50,MRC-5,plaque count,AD169,23 µM
O=c1[nH]c(=O)n([C@H]2C[C@H](O)[C@@H](CO)O2)cc1CCCl,EC50,HFF,cytopathic effect,AD169,0.06 µM
OC[C@H]1O[C@@H](n2c(Br)nc3cc(Cl)c(Cl)cc32)[C@H](O)[C@@H]1O,EC50,-,virus yield,Recombinant C4 (D341E),<4.8 µM
CC1(C)OCC2(CO[C@@H](n3ccc(=O)[nH]c3=O)C2)O1,EC50,HFF,-,AD169,>100 µM
CC(O)c1cn([C@@H]2O[C@H](CO)[C@@H](O)[C@@H]2O)c(=S)[nH]c1=O,EC50,MRC-5,plaque count,AD169,>213 µM
CC1(C)OCC2(CO[C@@H](n3ccc(NC(=O)c4ccccc4)nc3=O)C2)O1,EC50,HFF,-,AD169,>100 µM
O[C@@H]1[C@H](O)[C@H](O)CO[C@H]1n1c(Br)nc2cc(Cl)c(Cl)cc21,EC50,HFF,plaque count,C8708/17-1-1,2 µM
[N-]=[N+]=N[C@H]1C[C@@H](CO)S[C@H]1n1ccc(N)nc1=O,EC50,-,-,-,<100 µg/mL
Cc1ccn2c(C3OCCS3)cnc2c1,EC50,HEL,-,AD169,>106 µM
Cc1cn([C@@H]2S[C@@H](CO)C[C@@H]2N=[N+]=[N-])c(=O)[nH]c1=O,EC50,-,-,-,<100 µg/mL
Nc1ncnc2c1ncn2C=C1CC1CO,EC50,HFF,plaque count,AD169,2.1 µM
CC[C@@]1(Cl)C(=O)NC(=O)N([C@H]2C[C@H](O)[C@@H](CO)O2)[C@H]1OC,EC50,HFF,cytopathic effect,AD169,0.04 µM
O=C(NCCc1ccccc1)C1=Cc2ccncc2CC1,EC50,HFF,plaque count,TOWNE,12.9 µM
O=C(NCc1ccc(Cl)cc1)c1c[nH]c2c(F)cccc2c1=O,EC50,-,virus yield,DAVIS,<50 µM
Nc1nc2c(ncn2COC(CO)CO)c(=O)[nH]1,EC50,HFF,plaque count,RCMP97 (drug-resistant),35 µM
Nc1ccn(C[C@@H](CO)OCP(=O)(O)O)c(=O)n1.O=C(O)P(=O)(O)O,EC50,MRC-5,plaque count,PC92 (ganciclovir- foscarnet-susceptible),0.96 µM
Nc1nc2c(ncn2/C=C2/CC2(CO)CO)c(=O)[nH]1,EC50,HFF,plaque count,GDGRP53 (ganciclovir- foscarnet-resistant),0.8 µM
CCCCNc1c(C#N)c2cc(Cl)c(Cl)cc2n1[C@@H]1O[C@H](CO)[C@@H](O)[C@H]1O,EC50,HFF,plaque count,-,15 µM
Cc1c(Br)cc(Br)c2ncc(CSCc3ccccc3F)n12,EC50,HEL,plaque count,AD169,>5 µg/mL
Nc1nc2c(ncn2COC(CO)CO)c(=O)[nH]1,EC75,MRC-5,plaque count,Towne (ganciclovir- foscarnet-susceptible),9.94 µM
CN(C)c1cccc2c(S(=O)(=O)Nc3ccc(NC(=O)C(C)(C)CO)cc3)cccc12,EC50,-,plaque count,AD169 (resistant strain),14 µM
CN(C)c1c(C#N)c2cc(Cl)c(Cl)cc2n1[C@@H]1O[C@H](CO)[C@@H](O)[C@H]1O,EC50,HFF,plaque count,-,17 µM
Nc1nc(=S)n([C@@H]2O[C@H](CO)[C@@H](O)[C@@H]2O)cc1/C=C/c1ccccc1,EC50,MRC-5,plaque count,AD169,>213 µM
CC(C)Oc1ccccc1CNC(=O)c1ccc2cnccc2n1,EC50,MRC-5,plaque count,AD169,0.03 µM
COc1ccc(CSCc2cnc3c(Br)cc(Br)c(C)n23)cc1,EC50,HEL,plaque count,AD169,>50 µg/mL
Cc1cn([C@@H]2CC3(CO2)COC(C)(C)O3)c(=O)[nH]c1=O,EC50,HFF,-,AD169,>100 µM
C=Cc1cn([C@@H]2O[C@H](CO)[C@@H](O)[C@@H]2O)c(=S)[nH]c1=O,EC50,MRC-5,plaque count,93-1R,>213 µM
Cc1ccc(CSCc2cnc3c(Br)cc(Br)c(C)n23)cc1,EC50,HEL,plaque count,AD169,>50 µg/mL